Measured values from several laboratories, pooled; numbers as filed in NIAID ChemDB.

Shared fields: cytotoxicity tests; measure: CC50

Rows are shuffled and stem from different studies.

compound | cell line | method | result
Cc1cn([C@H]2C[C@H](N=[N+]=[N-])C(COC(=O)COC[C@H]3O[C@@H](O[C@@H]4OC[C@@H](O[C@H]5[C@@H](OS(=O)(=O)[O-])[C@@H](OS(=O)(=O)[O-])[C@H](O)O[C@@H]5CO)[C@H](O)[C@H]4O)[C@H](O)[C@@H](O)[C@@H]3O[C@@H]3O[C@H](COS(=O)(=O)[O-])C[C@H](O)[C@H]3OS(=O)(=O)[O-])O2)c(=O)[nH]c1=O | P4R5 | MTT | >100 µg/mL
Cn1ncnc1-c1ncc(F)c2c(C(=O)C(=O)N3CCN(C(=O)c4ccccc4)CC3)c[nH]c12 | HeLa | trypan blue | >100 µM
O=c1c(-c2ccccc2O)c(O)c2cccnc2n1O | HeLa |  | <100 µM
CCO/C=N\C1=C(C#N)C2=C(CCC/C2=C\c2ccncc2)C(c2ccncc2)S1 | MCF-7 | MTT | 49.6 µM
FC(F)(F)c1ccc(NC(=S)NCCc2ccc3c(n2)NCCC3)cc1 | PBMC |  | 0.2 µM
O=C1/C(=C/c2ccc(-c3cc(C(F)(F)F)ccc3Cl)o2)SC(=S)N1Cc1ccc(Cl)cc1 | Ramos | MTT | 3.8 µM
Cc1c(Cl)cccc1NC(=O)NCCc1ccc2c(n1)NCCC2 | PBMC |  | 2.2 µM
O=c1cc(NCc2cnc(-c3ccccc3)[nH]2)c2cccnc2n1O | HeLa |  | <100 µM
COc1ccc(CCNC(=O)CCCCC(C)=O)cc1OC | BJ |  | <7.5 µM
COC(=O)N[C@@H](Cc1ccccc1Cl)C(=O)N[C@@H](C)CCC[C@@H](CO)N(CCC(C)C)S(=O)(=O)c1ccc(N)cc1 | T lymphoid cells | microscopy | >10 µM
O=C1NC(=Nc2ccccc2O)S/C1=C/c1ccc(O)c(O)c1 | HOS |  | 30 µM
CCOC(=O)[C@@]1(C)CC[C@]2(C)CC[C@]3(C)C(=CC(=O)[C@@H]4[C@@]5(C)CC/C(=N\OCc6ccc(F)cc6)C(C)(C)[C@@H]5CC[C@]43C)[C@@H]2C1 | CT26 | MTT | 4.54 µM
COc1cc(O)c2c(c1O)C1O[C@]3(C)C[C@H]1[C@@H](CO3)C2=O | Panc-1 | MTT | 52.7 µg/mL
O=c1cc(-c2ccc3ncccc3c2)c2cccnc2n1O | HeLa |  | <100 µM
COC1=CC(=O)c2c(O)c(C)c3c(c2C1=O)OC(C)C3 | Panc-1 | MTT | 97.6 µg/mL
O=[N+]([O-])c1c(Cl)nc(C(F)(F)F)nc1N1CC[N+]2(CC1)CC[N+]1(CCN(c3nc(C(F)(F)F)nc(Cl)c3[N+](=O)[O-])CC1)CC2 | K562 |  | >261 µg/mL
O=c1[nH]c(=O)n([C@H]2C[C@H](O)[C@@H](CO)O2)cc1/C=C/Cl | RF | cell count | >70 µM
CCOC(=O)[C@@]1(C)CC[C@]2(C)CC[C@]3(C)C(=CC(=O)[C@@H]4[C@@]5(C)CC/C(=N\OCc6ccc(C(F)(F)F)cc6)C(C)(C)[C@@H]5CC[C@]43C)[C@@H]2C1 | CT26 | MTT | >100 µM
CC(C)N(Cc1cccc(OCCCCCC(=O)OC(=O)O)c1)C(=O)c1ccc(-c2cccc(O)c2)cc1 | HepG2 |  | >20 µM
CN1C(=O)c2c(c3cccnc3n(O)c2=O)NC1c1ccccc1-c1ccccc1 | HeLa |  | <100 µM
CC[C@@H](CCC[C@@H](CO)N(CCC(C)C)S(=O)(=O)c1ccc(N)cc1)NC(=O)[C@@H](N)C(c1ccccc1)c1ccccc1 | T lymphoid cells | microscopy | >10 µM
O=c1sc2nc3c(c(=S)n2/c1=C/c1ccc(Cl)cc1)C1=C(CCC/C1=C\c1ccncc1)C(c1ccncc1)S3 | MGC-803 | MTT | 35.2 µM
COC(=O)N[C@H](C(=O)NC(CO)CCCC(CO)N(CCC(C)C)S(=O)(=O)c1ccc(N)cc1)C(c1ccccc1)c1ccccc1 | T lymphoid cells | microscopy | >10 µM
O=S(=O)(NCCc1ccc2c(n1)NCCC2)c1ccc2ccccc2c1 | PBMC |  | 50 µM
Nc1nc2c(ncn2CCC(CO)CO)c(=O)[nH]1 | OMK | cell count | 308 µM
O=c1cc(N[C@H](CN2CCCCC2)c2ccccc2)c2cccnc2n1O | HeLa |  | <100 µM
CCOC(=O)[C@@]1(C)CC[C@]2(C)CC[C@]3(C)C(=CC(=O)[C@@H]4[C@@]5(C)CC/C(=N\OCc6cccc(C#N)c6)C(C)(C)[C@@H]5CC[C@]43C)[C@@H]2C1 | CT26 | MTT | >100 µM
O=C(CCBr)N1CC[N+]2(CC1)CC[N+]1(CCN(C(=O)CCBr)CC1)CC2 | L929 |  | >353.2 µg/mL
CN[C@H](C(=O)N[C@H](CCC[C@@H](CO)N(CCC(C)C)S(=O)(=O)c1ccc(CO)cc1)C1CC1)C(c1ccccc1)c1ccccc1 | T lymphoid cells | microscopy | >10 µM
O=c1[nH]c(=O)n([C@H]2C[C@H](O)[C@@H](CO)O2)cc1I | NIH 3T3 | cell count | 7 µM
CCOC(=O)/C=C1\NCCc2cc3c(cc21)OCO3 | BJ |  | <7.5 µM
O=C(Nc1ccc(C(F)(F)F)cc1)NC1CCc2ccccc2C1 | PBMC |  | 3.5 µM
CCOC(=O)[C@@]1(C)CC[C@]2(C)CC[C@]3(C)C(=CC(=O)[C@@H]4[C@@]5(C)CC/C(=N\OCc6ccc(-c7ccccc7)cc6)C(C)(C)[C@@H]5CC[C@]43C)[C@@H]2C1 | K562 | MTT | >100 µM
COC1=CC(=O)c2c(O)c(C)c3cc(C)oc3c2C1=O | MDA-MB-231 | MTT | 4.7 µg/mL
COc1cnc(-n2cncn2)c2[nH]cc(C(=O)C(=O)N3CCN(C(=O)c4ccccc4)CC3)c12 | HeLa | trypan blue | >100 µM
Cc1ccc(F)cc1NC(=O)NCCc1ccc2c(n1)NCCC2 | PBMC |  | 17.4 µM
O=C1Sc2nc3c(c(=S)n2C/C1=C/c1ccc(Cl)cc1)C1=C(CCC/C1=C\c1ccncc1)C(c1ccncc1)S3 | MGC-803 | MTT | 18.9 µM
Nc1nc2c(ncn2COC(CO)CO)c(=O)[nH]1 | BCBL-1 | cell count | 239 µM
O=C(NCCc1ccc2c(n1)NCCC2)Nc1cc(Cl)cc(Cl)c1 | PBMC |  | 18.7 µM
CCOC(=O)CCCCCOc1cccc(CN(C(=O)c2ccc(-c3cccc(OCC)c3)cc2)C(C)C)c1 | BJ |  | >20 µM
COc1cnc(-n2cncn2)c2[nH]cc(C(=O)C(=O)N3CCN(C(=O)c4ccccc4)[C@H](C)C3)c12 | HeLa | trypan blue | >100 µM
O=[N+]([O-])c1c(N2CC[N+]3(CC2)CC[N+]2(CCNCC2)CC3)ncnc1N1CC[N+]2(CC1)CC[N+]1(CCNCC1)CC2 | L929 |  | >232.4 µg/mL
CCc1ccc(CCN=C2NC(=O)/C(=C/c3ccc(-c4ccc(C(=O)O)c(O)c4)o3)S2)cc1 | HT-29 | MTT | 26 µM
O=C(NCCc1ccc2c(n1)NCCC2)NC1CCCC1 | PBMC |  | 50 µM
CCOC(=O)[C@@]1(C)CC[C@]2(C)CC[C@]3(C)C(=CC(=O)[C@@H]4[C@@]5(C)CC/C(=N\OCc6ccccc6Br)C(C)(C)[C@@H]5CC[C@]43C)[C@@H]2C1 | CT26 | MTT | 45.14 µM
CCOC(=O)c1[nH]c2c(c1N)C1=C(CCC/C1=C\c1ccncc1)C(c1ccncc1)S2 | MCF-7 | MTT | >50 µM
O=C1/C(=C/c2ccc(-c3cc(C(F)(F)F)ccc3Cl)o2)SC(=S)N1Cc1ccc(F)cc1 | HT-29 | MTT | 4.6 µM
Cc1nc(Cl)c([N+](=O)[O-])c(N2CC[N+]3(CC2)CC[N+]2(CCN(c4nc(C)nc(Cl)c4[N+](=O)[O-])CC2)CC3)n1 | L929 |  | >288 µg/mL
CCOC(=O)c1[nH]c2c(c1NC(N)=S)C1=C(CCC/C1=C\c1ccncc1)C(c1ccncc1)S2 | KB | MTT | 49.4 µM
CCOC(=O)CCCCCOc1cccc(CN(C(=O)c2ccc(-c3ccc4ccccc4c3)cc2)C(C)C)c1 | HepG2 |  | >20 µM
NC1=NC2C(C=CN2CC(CO)CCO)C(=O)N1 | RF | cell count | >200 µM
O=c1cc(-c2ccc(-c3ccn[nH]3)cc2)c2cccnc2n1O | HeLa |  | <100 µM
CCO/C(C)=N\C1=C(C#N)C2=C(CCC/C2=C\c2ccncc2)C(c2ccncc2)S1 | CNE-2 | MTT | 47.9 µM
CCCN([C@H](CO)CCC[C@H](CC)NC(=O)[C@H](Cc1ccccc1Br)NC(=O)OC)S(=O)(=O)c1ccc(N)cc1 | T lymphoid cells | microscopy | >10 µM
COc1ccccc1-c1c(O)c2cccnc2n(O)c1=O | HeLa |  | <100 µM
O=C(NCCc1cccc(-n2ccnc2)n1)NCc1ccc(F)cc1 | PBMC |  | 22 µM
CSc1nsc(-c2ccc(OS(=O)(=O)c3ccc(C)cc3)cc2)c1C#N | HELA-OHIO |  | 25 µM
O=C(NCCc1ccc2c(n1)NCCC2)Nc1ccnn1-c1ccccc1 | PBMC |  | 2.6 µM
Nc1c2c(nc(=S)n1-c1ccccc1)SC(c1ccncc1)C1=C2/C(=C/c2ccncc2)CCC1 | CNE-2 | MTT | 14.2 µM
CC(C1CCN(c2cc(=O)n(O)c3ncccc23)CC1)N1CCOCC1 | HeLa |  | <100 µM
COC(=O)NC(C(=O)N[C@@H](C)CCC[C@@H](CO)N(C(C)C)S(=O)(=O)c1ccc(CO)cc1)C(c1cccc(F)c1)c1cccc(F)c1 | T lymphoid cells | microscopy | >10 µM
Nc1c(C(=O)c2ccccc2)[nH]c2c1C1=C(CCC/C1=C\c1ccncc1)C(c1ccncc1)S2 | MGC-803 | MTT | >50 µM
COC(=O)N[C@@H](Cc1ccccc1Cl)C(=O)N[C@@H](C)CCC[C@@H](CO)N(C(C)C)S(=O)(=O)c1ccc(N)cc1 | T lymphoid cells | microscopy | >10 µM
Cc1ccc(/C=C2/Cn3c(nc4c(c3=S)C3=C(CCC/C3=C\c3ccncc3)C(c3ccncc3)S4)SC2=O)cc1 | KB | MTT | 19.8 µM
CSc1nsc(-c2ccc(OC(C)(C)C)cc2)c1C#N | L929 |  | >50 µM
O=C1S/C(=C/c2ccc(O)c(O)c2)C(=O)N1c1ccc(O)cc1 | HOS |  | 28 µM
CSc1nsc(-c2ccc(OCc3ccccc3)cc2)c1C#N | HELA-OHIO |  | >50 µM
COc1cnc(-c2ncco2)c2[nH]cc(C(=O)C(=O)N3CCN(C(=O)c4ccccc4)CC3)c12 | HeLa | trypan blue | ≤100 µM

The last 6 rows once more:

compound	cell line	method	result
COC(=O)N[C@@H](Cc1ccccc1Cl)C(=O)N[C@@H](C)CCC[C@@H](CO)N(C(C)C)S(=O)(=O)c1ccc(N)cc1	T lymphoid cells	microscopy	>10 µM
Cc1ccc(/C=C2/Cn3c(nc4c(c3=S)C3=C(CCC/C3=C\c3ccncc3)C(c3ccncc3)S4)SC2=O)cc1	KB	MTT	19.8 µM
CSc1nsc(-c2ccc(OC(C)(C)C)cc2)c1C#N	L929		>50 µM
O=C1S/C(=C/c2ccc(O)c(O)c2)C(=O)N1c1ccc(O)cc1	HOS		28 µM
CSc1nsc(-c2ccc(OCc3ccccc3)cc2)c1C#N	HELA-OHIO		>50 µM
COc1cnc(-c2ncco2)c2[nH]cc(C(=O)C(=O)N3CCN(C(=O)c4ccccc4)CC3)c12	HeLa	trypan blue	≤100 µM

CCn is the concentration with n% toxicity to the cells. Blank or dashed fields: not listed here.